This passage reports IC50 results from patent US12060333B2 (Hoffmann-La Roche Inc., priority 2021, dated 2024).

Chains of the proteins cited; added tags and fusions are not shown. Residues count along the entry.
UniProt K9N7C7, 3248-3553: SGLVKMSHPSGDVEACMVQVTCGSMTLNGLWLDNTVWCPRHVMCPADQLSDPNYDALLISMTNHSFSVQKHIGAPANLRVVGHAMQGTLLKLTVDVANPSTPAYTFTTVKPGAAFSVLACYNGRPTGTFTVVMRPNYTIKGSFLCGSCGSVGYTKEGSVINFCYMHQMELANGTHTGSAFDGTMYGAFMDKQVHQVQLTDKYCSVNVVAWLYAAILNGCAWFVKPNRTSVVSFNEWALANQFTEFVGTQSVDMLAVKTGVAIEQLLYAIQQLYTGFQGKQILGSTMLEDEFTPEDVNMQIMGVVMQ

Test [1] concerns the target MERS-CoV 3CLpro (Middle East respiratory syndrome-related coronavirus, UniProt K9N7C7).
Test [2] deals with SARS-CoV 3CLpro (Severe acute respiratory syndrome coronavirus, UniProt P0C6X7).

With `O=C(N[C@@H](CC12CC(C1)C2)C(=O)NN(C[C@@H]1CCNC1=O)C(=O)[C@H](F)Cl)c1cc(C(F)(F)F)on1` [Example 99, N-[(1S)-1-(1-bicyclo[1.1.1]pentanylmethyl)-2-[2-[(2R)-2-chloro-2-fluoro-acetyl]-2-[[(3S)-2-axopyrrolidin-3-yl]methyl]hydrazino]-2-axo-ethyl]-5-(trifluoromethyl)isoxazole-3-carboxamide], the IC50 (as a rule, the concentration that inhibits the measured activity by half) in test [1] stood at 230 nM.
On to `Cc1cc(C(=O)N[C@@H](CC23CC(C2)C3)C(=O)NN(C[C@@H]2CCNC2=O)C(=O)[C@H](F)Cl)no1` [Example 71, N-[(1S)-1-(1-bicyclo[1.1.1]pentanylmethyl)-2-[2-[(2R)-2-chloro-2-fluoro-acetyl]-2-[[(3S)-2-axopyrrolidin-3-yl]methyl]hydrazino]-2-axo-ethyl]-5-methyl-isoxazole-3-carboxamide], for which the IC50 was found to be 180 nM in test [2] and 160 nM in test [1].
